Source: patent US11395816B2, “Corroles for treating human cytomegalovirus infections” (UNIVERSITE DE BOURGOGNE, priority 2017, dated 2022)
The source's definition of the ratio is not given here.

System: hCMV
Experiment: hCMV infection assay in ARPE-19 cells (infection level and DNA replication by high content microscopy)
Format: cell-based, human cytomegalovirus
Protocol: ARPE-19 human retinal pigmented epithelium cells were used for hCMV infection assay.
Cells were grown in DMEM without phenol red (Sigma-Aldrich) 10% SVF, Pen-strep, 1× sodium pyruvate, 1× Glutamax.
hCMV infection was carried out on ARPE-19 cells seeded in 96 wells plate, in duplicate at one or two MOI (multiplicity of infection) and 7 concentrations of FNO2Cor, TPFCor, TpNO2Cor. • D0: MRC5/ARPE-19 cells seeded at 6 k per well in Corning Glass Bottom 96 well plates in 200 μL of DMEM without phenol red. • D1: cells were treated with FNO2Cor, TpNO2Cor, TPFCor (from 50 to 0.1 μM by two fold dilutions) in duplicate for the toxicity study. • D3: ARPE-19 cells were treated with Ganciclovir, FNO2Cor, TpNO2Cor, TPFCor (from 5 to 0.07 μM or from 10 to 0.15 μM by two fold dilutions) and were infected at different MOI in duplicate: MOI 10 or 2 for ARPE-19 cells. • D7: ARPE-19 cells at MOI 10 4 d post-infection were fixed with Formalin 10 min at room temperature. Cells were washed with 200 μL PBS and 100 μL PBS/Hoechst® 33342 ( 1/1000) per well. 96 well plates were kept at 4° C. in the dark until data acquisition Image acquisition and analysis for high content quantification was performed on a Thermo Cellomics Arrayscan™ VTI microscope using a modified compartmental analysis algorithm. • D13: ARPE19 cells at MOI 2 10 days post-infection were fixed and image acquisition and analysis were performed as previously described.
On 4 d and 10 d post-infection (2 post-infection times), data acquisition per virus and cell line was done by high content microscopy to calculate infection level and DNA replication according to compound concentration.
Compounds FNO2Cor, TPFCor, TpNO2Cor and anti-hCMV drug Ganciclovir were assessed at 8 different concentrations in ARPE-19 cell culture on 4 days post-infection (FIGS. 2A, 2B) or on 10 days post-infection (FIGS. 3A, 3B) to evaluate their activity for inhibiting hCMV infection and their capacity for inhibiting hCMV replication in ARPE-19 cells.

**Q.** What does the source list for `O=[N+]([O-])c1ccc(-c2c3nc(c4ccc([nH]4)c(-c4ccc([N+](=O)[O-])cc4)c4ccc([nH]4)c(-c4ccc([N+](=O)[O-])cc4)c4ccc2[nH]4)C=C3)cc1` [TpNO2Cor, 5,10,15-Tris(4-nitrophenyl)corrole, reference compound]?
**A.** Selectivity index (infection inhibition) (4 d PI, Table III): 6.28; Selectivity index (replication inhibition) (4 d PI, Table III): 3.0; Selectivity index (infection inhibition) (Table V, head prints 4 d PI, text says 10 d PI): 13.93
